This is a selection; strong and weak results do not stand in their true shares. Activity calls are given as the source filed them.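 The calls were made as follows: active = inhibition of at least 50% in every replicate; inconclusive = best replicate reaches 50% inhibition but some replicates fall short; inactive = the rest.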

Sequences of proteins named here, by UniProt entry; tags and fusion partners are left off.
UniProt Q5AAJ8, whole entry, looked up: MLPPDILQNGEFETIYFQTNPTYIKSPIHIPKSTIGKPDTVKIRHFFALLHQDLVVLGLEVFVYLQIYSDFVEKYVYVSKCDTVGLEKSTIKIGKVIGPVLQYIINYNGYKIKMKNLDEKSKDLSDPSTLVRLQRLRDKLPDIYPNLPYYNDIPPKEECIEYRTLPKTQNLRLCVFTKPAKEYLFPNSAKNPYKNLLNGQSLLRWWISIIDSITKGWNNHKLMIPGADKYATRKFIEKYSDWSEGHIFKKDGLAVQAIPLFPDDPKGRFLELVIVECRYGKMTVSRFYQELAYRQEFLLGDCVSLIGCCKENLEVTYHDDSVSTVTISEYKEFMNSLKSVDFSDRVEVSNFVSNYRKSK

The assay concerns the target Histone acetyltransferase RTT109 (Candida albicans (strain SC5314 / ATCC MYA-2876)) (UniProt Q5AAJ8). Briefly: Rtt109-Vps75 histone acetyltransferase blockade – biochemical, ThioGlo CoA-SH fluorescence, plate reader, primary screen (AID 540336). Particulars: purified Rtt109/Vps75, ThioGlo CoA-SH fluorescence, 4 h; at 34.9 µM; hits give high values.
A word on the inhibition: it is the relative decrease from the control value, in per cent. With `CN(C)C(=O)OCCc1n(C)cc[n+]1C`, the inhibition is inactive: -4.47%. On to `CC(C)=N/N=C(\N)N[N+](=O)[O-]`, for which the inhibition was inactive: -4.58%.

`CC1CCN(C(=O)Oc2c(Cl)cc(Cl)c3cccnc23)CC1`: the inhibition was inactive: -3.96%.

As to `C[N+]1=C2C=CC=CC=C2SC12C([N+](=O)[O-])=CC([N+](=O)[O-])=C[C-]2[N+](=O)[O-]` (stereo not given), the inhibition was inactive: -3.02%. Under `Nc1ccc([As](=O)(O)c2ccc(N)cc2)cc1` stands inactive: 7.34%; under `CCN(/C(=N/P(=O)(N1CCOCC1)N1CCOCC1)N1CCOCC1)c1ccc(OC)cc1`, inactive: -5.34%; under `CC(=O)N1C2C3N(C(C)=O)C1C1N(C(C)=O)C(C(N1C(C)=O)N3C(C)=O)N2C(C)=O`, inactive: 0.958%.

As to `O=[N+]([O-])c1cccc2n[nH]nc12`, the inhibition was inactive: -3.68%. Under `O=[N+]([O-])c1cc([N+](=O)[O-])c(CCNc2ccccc2)c([N+](=O)[O-])c1` stands inactive: 2.21%; under `CCc1nc2c(n1)c1c(non1O)c1c2no[n+]1[O-]`, inactive: -4.89%; under `Cc1ccc(NP(=O)(Oc2ccccc2)Oc2ccccc2)nc1`, inactive: -7.41%. As for `COc1ccc(C2=NCC(CBr)S2)cc1` (stereo not given), the figure is inactive: -3.08%; as for `O=[N+]([O-])c1cccc(NC2=NCC(CBr)S2)c1` (stereo not given), inactive: 48.9%. As for `COC(=O)C1(C)COP(=O)(Nc2ccccc2)OC1` (stereo not given), the figure is inactive: -2.47%; as for `O=C(O)CNc1ccc([As](=O)(O)O)cc1`, inactive: -1.78%; as for `CC(C)(C)C(=O)NC(Sc1ccncn1)C(Cl)(Cl)Cl` (stereo not given), inactive: -1.28%. For `O=C(Nc1cc([As](=O)(O)O)ccc1O)c1ccccc1`, the inhibition is inactive: 9.86%. As to `O=P1(N(CCCl)CCCl)OCCCS1` (stereo not given), the inhibition is inactive: -8.45%.

`CCN(N=Nc1nonc1N)c1nonc1N`: the inhibition was inactive: 1.88%. For the compound `Nc1cccc2ccc([As](=O)(O)O)cc12`, the inhibition was inactive: 1.83%.

With `CN(C(=O)Cc1ccc(Cl)c(Cl)c1)[C@H]1CCCC[C@@H]1N1CCCC1`, the inhibition is inactive: 2.11%. Under `Cc1ccc(NP(=O)(Oc2ccccc2F)Oc2ccccc2F)nc1` stands inactive: 1.3%; under `CCOP(=O)(Nc1ccccc1)OCC`, inactive: -0.242%; under `Cc1cc(SC(NC(=O)c2ccc(F)cc2)C(Cl)(Cl)Cl)ncn1` (stereo not given), inactive: -8.94%.

In the case of `CCCC1OP(N)(=O)OCC1CC` (stereo not given), the inhibition was inactive: 2.84%. Under `O=C(O)c1ccccc1[As](=O)(O)O` stands inactive: 3.44%.

For the compound `CC(=O)Nc1ccc([As](=O)(O)O)cc1`, the inhibition is inactive: -1.19%. As for `O=P(Nc1nc2ccc(Cl)cc2s1)(c1ccccc1)c1ccccc1`, the figure is inactive: 3.25%; as for `CC(C)CC(=O)NC(Sc1ccc(Cl)cc1)C(Cl)(Cl)Cl` (stereo not given), inactive: -1.82%. Under `Nc1cc(N)c2nonc2c1[N+](=O)[O-]` stands inactive: 1.61%; under `O=C(NC(Sc1ccncn1)C(Cl)(Cl)Cl)c1ccccc1` (stereo not given), inactive: 5.69%.

`Oc1ccccc1CNc1ccccn1`: the inhibition is inactive: -15.5%. Under `COc1ccccc1OP(=O)(Nc1ccc(C)cn1)Oc1ccccc1OC` stands inactive: -3.53%; under `Clc1ccc(Cl)c(NC2=NCC(CBr)S2)c1` (stereo not given), inactive: -0.665%; under `CN1CCCC(OC(=O)C(c2ccccc2)c2ccccc2)C1` (stereo not given), inactive: -1.39%.

`NC(=O)c1cc([N+](=O)[O-])cc([N+](=O)[O-])c1N`: the inhibition was inactive: 14.7%. As for `Cc1ccc(N/C(=N/P(=O)(N2CCOCC2)N2CCOCC2)N2CCOCC2)cc1`, the figure is inactive: -8.25%; as for `CN(C(=O)Cc1ccc(Cl)c(Cl)c1)[C@H]1CCCC[C@H]1N1CCCC1`, inactive: 2.65%. Under `CC(=O)Nc1ccc(Oc2c([N+](=O)[O-])cc([N+](=O)[O-])cc2[N+](=O)[O-])cc1` stands inactive: 4.98%; under `CC(=O)Nc1ccc([As](=O)(O)O)c(O)c1`, inactive: 1.38%; under `COC(=O)C1(C)COP(=O)(NCc2ccccc2)OC1` (stereo not given), inactive: 1.67%.

For the compound `N#C/C(=C\c1ccc(N(CCBr)CCBr)cc1)C(N)=O`, the inhibition was inactive: 6.08%. As for `CC(=O)c1ccc(N2CC2c2ccncc2)cc1` (stereo not given), the figure is inactive: 5.05%. Take `C[C@@H]1C=CCP(=O)(Oc2ccccc2)O1` (stereo not given in full): the inhibition is inactive: 4.44%. With `C[C@H]1OP(=O)(Oc2ccccc2)C[C@@H]2O[C@@H]21` (stereo not given in full), the inhibition is inactive: 1.17%.

Turning to `Cc1ccccc1CN(C)C(=O)COC(=O)C(O)(c1ccccc1)c1ccccc1`, the inhibition is inactive: 6.95%. Take `CCc1cc(O)c([N+](=O)[O-])c(C)c1[N+](=O)[O-]`: the inhibition is inactive: -2.84%. Under `CC(C)(C)C(=O)NC(Sc1ccccc1)C(Cl)(Cl)Cl` (stereo not given) stands inactive: 4.76%; under `CCOc1ccc(C2=NCC(CBr)S2)cc1` (stereo not given), inactive: -11.8%; under `O=P1(Nc2nc3ccc(Cl)cc3s2)COc2ccccc2O1` (stereo not given), inactive: 6.27%. In the case of `CN(C)C(=O)Oc1noc2ccccc12`, the inhibition was inactive: -9.24%.

Regarding `O=c1c2cc([N+](=O)[O-])ccc2[nH]c2c([N+](=O)[O-])cc([N+](=O)[O-])cc12`, the inhibition was inactive: -1.71%. Under `Cc1ccccc1OP(=O)(Nc1ccccn1)Oc1ccccc1C` stands inactive: 4.49%; under `CC(NC(=O)COC(=O)C(O)(c1ccccc1)c1ccccc1)c1ccccc1` (stereo not given), inactive: 3.15%. Turning to `Cc1ccc(OP(=O)(Nc2ccccn2)Oc2ccc(C)cc2)cc1`, the inhibition is inactive: 3.88%. As to `CC(=O)NC(SC(=S)N(CC(C)C)CC(C)C)C(Cl)(Cl)Cl` (stereo not given), the inhibition was inactive: 0.595%. In the case of `COC(=O)c1cc2c(s1)N=C(c1ccccc1)N(C)P2(=O)N1CCOCC1` (stereo not given), the inhibition is inactive: 1.05%.

In the case of `CCC(=O)N1C2C3N(C(=O)CC)C1C1N(C(=O)CC)C(C(N1C(=O)CC)N3C(=O)CC)N2C(=O)CC`, the inhibition is inactive: -14.8%. On to `O=C(OC1CN2CCC1CC2)c1ccccc1` (stereo not given), for which the inhibition is inactive: -9.34%.

Take `O=P1(N(CCCl)CCCl)OCCC2CCCCN21` (stereo not given): the inhibition is inactive: -1.12%.

For the compound `O=C(NC1CCS(=O)(=O)C1)NP(=S)(Oc1ccccc1)Oc1ccccc1` (stereo not given), the inhibition was inactive: -5.85%. For `CCNC(=S)/N=C(\N)N[N+](=O)[O-]`, the inhibition is inactive: -6.2%.

For `Cc1ccc(NP(=O)(Oc2cccc(C)c2)Oc2cccc(C)c2)nc1`, the inhibition was inactive: -4.23%.

Consider `c1ccc(-c2nn[nH]n2)c(-c2nn[nH]n2)c1`, for which the inhibition is inactive: -3.61%. As for `Nc1ccc([As](=O)(O)c2ccc([N+](=O)[O-])cc2)cc1`, the figure is inactive: -9.45%.
